Pooled drug test results. Numbers come from NIAID ChemDB, via PubChem.

All rows: host cell toxicity; cell line: MT-4; measure: CC50

CCn is the concentration with n% toxicity to the cells.

compound	result
O=C(CCCCCNCCCCCNCc1ccccc1)Nc1ccn([C@@H]2CS[C@@H](COC(=O)CCCCCNCCCCCNCc3ccccc3)O2)c(=O)n1	>50 µM
O=[N+]([O-])CC1Nc2ccccc2S(=O)(=O)n2cccc21	14 µM
CSCCC(c1nnc(SCc2ccc(F)cc2)o1)N(Cc1ccc(F)cc1)S(=O)(=O)c1ccc(C)cc1	>125 µg/mL
COC(=O)Nc1nc2ccc(S(=O)(=O)N(CC(C)C)C[C@@H](O)[C@H](Cc3ccccc3)NC(=O)COc3c(C)cc(CN)cc3C)cc2[nH]1	13.8 µM
O=C1C=CC(=C(c2ccc(O)cc2)c2ccc(O)cc2)C=C1	2.6 µM
CN1C(=O)c2cccn2S(=O)(=O)c2cc(Cl)ccc21	>200 µM
Cc1c(Cc2cccc3ccccc23)n(COCCO)c(=O)[nH]c1=O	205 µM
Cc1ccc(S(=O)(=O)NC(Cc2ccccc2)c2nnc(SCc3ccc(Br)cc3)o2)cc1	82.1 µg/mL
CC(C)(C)OC(=O)N(CCCCCC(=O)Nc1ccn([C@@H]2CS[C@@H](CO)O2)c(=O)n1)CCCCN(Cc1ccccc1)C(=O)OC(C)(C)C	10 µM
O=S(=O)(NCCCc1n[nH]c(=S)o1)c1ccc(Cl)cc1	70 µg/mL
CCOC(=O)c1cccn1S(=O)(=O)c1cc(Cl)ccc1NC(=O)CN1CCN(C(C)=O)CC1	135 µM
CCOC(=O)c1cnn2c1nnc1ccc(Cl)cc12	5.2 µM
CCn1cc(C(=O)O)c(=O)c2cc(F)c(N3CCN(c4ncccn4)C(C)C3)c(OC(F)F)c21	10.5 µg/mL
O=[N+]([O-])c1ccc2c(c1)nnc1ccnn12	30.7 µM
CC[C@@H]1C=CC[C@@H](n2cnc3c(N)ncnc32)O1	>100 µM
CCOC(=O)c1cnn2c1nnc1ccccc12	>200 µM
COc1ccc(-c2nnc(-c3ccc(N)cc3)o2)cc1	116 µg/mL
CC(C)CN(C[C@@H](O)[C@H](Cc1ccccc1)NC(=O)O[C@H]1CCOC1)S(=O)(=O)c1ccc2nc[nH]c2c1	>100 µM
NC1=CS(=O)(=O)OC12[C@@H](CO)O[C@@H](n1ccc(=O)[nH]c1=O)[C@@H]2O	>100 µg/mL
CCc1c(Cc2cccc3ccccc23)n(COCCO)c(=O)[nH]c1=O	191 µM
C[C@@H](NS(=O)(=O)c1ccc(Cl)cc1)C(=O)NN	113 µg/mL
CC(C)(C)OC(=O)N(CCCCCC(=O)Nc1ccn([C@H]2CS[C@@H](COC(=O)CCCCCN(Cc3ccccc3)C(=O)OC(C)(C)C)O2)c(=O)n1)Cc1ccccc1	100 µM
COc1ccc(S(=O)(=O)NCCCc2n[nH]c(=S)o2)cc1	125 µg/mL
Cc1ccc(S(=O)(=O)NC(C)c2nnc(SCc3ccccc3)o2)cc1	59.58 µg/mL
O=c1ccn([C@H]2CC=C[C@@H](CO)O2)c(=O)[nH]1	>100 µM
COC(=O)[C@H](C)NP(=O)(C[C@H]1O[C@@H](n2cc(C)c(=O)[nH]c2=O)C[C@@H]1N=[N+]=[N-])O[C@H]1C[C@H](n2cc(C)c(=O)[nH]c2=O)O[C@@H]1CO	180 µg/mL
Cn1cc(C(=O)O)c(=O)c2cc(F)c(N3CCN(c4ncccn4)CC3)c(OC(F)F)c21	17.99 µg/mL
Cc1cccc(C)c1OCC(=O)N[C@@H](Cc1ccccc1)[C@H](O)CN(CC(C)C)S(=O)(=O)c1ccc2ncn(C)c2c1	57.5 µM
NC(=O)CC1Nc2ccccc2S(=O)(=O)n2cccc21	206 µM
CCOCn1c(Cc2cccc3ccccc23)c(C(C)C)c(=O)[nH]c1=O	38.3 µM
CCn1cc(C(=O)O)c(=O)c2cc(F)c(N3CCN(c4cnccn4)CC3)c(OC(F)F)c21	>25.07 µg/mL
Nc1ccn([C@@H]2C=CC[C@@H](CO)O2)c(=O)n1	>100 µM
NC1=Nn2c(nnc2-c2ccc(Cl)c(Cl)c2)SC1	2.7 µg/mL
CC(C)CN(C[C@@H](O)[C@H](Cc1ccccc1)NC(=O)O[C@H]1CCOC1)S(=O)(=O)c1ccc2ncn(CCc3ccccc3)c2c1	63.1 µM
CC(C)(C)OC(=O)N(CCCCCC(=O)Nc1ccn([C@H]2CS[C@@H](COC(=O)CCCCCN(CCCCN(Cc3ccccc3)C(=O)OC(C)(C)C)C(=O)OC(C)(C)C)O2)c(=O)n1)CCCCN(Cc1ccccc1)C(=O)OC(C)(C)C	10 µM
CCOC(=O)C1c2cccn2N(C)c2ccccc2N1C(=O)CCl	6.3 µM
Cc1cn([C@@H]2O[C@H](CO)C3(OS(=O)(=O)C=C3N)[C@H]2O[Si](C)(C)C(C)(C)C)c(=O)[nH]c1=O	106 µg/mL
O=S1(=O)c2ccccc2-n2cnnc2-c2cccn21	>367 µM
O=C(O)c1cn(C2CC2)c2c(OC(F)F)c(N3CCN(c4ccc(F)cc4)CC3)c(F)cc2c1=O	0.68 µg/mL
Nc1ccc(-c2nnc3sc(-c4cc5ccccc5oc4=O)nn23)cc1	108.3 µg/mL
Cc1c(N)cccc1C(=O)N[C@@H](Cc1ccccc1)[C@H](O)CN(CC(C)C)S(=O)(=O)c1ccc2nc[nH]c2c1	>100 µM
Nc1ccn([C@H]2CS[C@@H](COC(=O)CCCCCNCCCCCNCc3ccccc3)O2)c(=O)n1	>50 µM
O=C1CSC(c2c(Cl)cccc2Cl)N1c1cccc([N+](=O)[O-])c1	15.98 µM
Nn1c(-c2cccc(Br)c2)n[nH]c1=S	75.4 µg/mL
CC(NS(=O)(=O)c1ccc(Cl)cc1)c1nnc(SCc2ccc(F)cc2)o1	>58.75 µg/mL
N#Cc1cnn2c1nnc1ccc(Cl)cc12	16.7 µM
CCOC(=O)C12CC(=O)N1c1ccccc1S(=O)(=O)n1cccc12	23 µM
O=C1CSc2nnc(-c3ccc(Cl)c(Cl)c3)n2N1	35.23 µg/mL
CC(C)CN(C[C@@H](O)[C@H](Cc1ccccc1)NC(=O)OCc1cccnc1)S(=O)(=O)c1ccc2nc[nH]c2c1	>100 µM
CC[C@@H](NS(=O)(=O)c1ccc(Cl)cc1)c1n[nH]c(=S)o1	122 µg/mL
Clc1ccc2nnc3c(Br)cnn3c2c1	>200 µM
O=C1Nc2ccc(Cl)cc2S(=O)(=O)n2cccc21	>200 µM
Nc1ccn([C@@H]2CC=C[C@@H](CO)O2)c(=O)n1	>100 µM
N#Cc1cnn2c1nnc1cc(Cl)ccc12	4.5 µM
O=C1CSC(c2c(F)cccc2Cl)N1c1cccc(Br)c1	30.1 µM
COCn1c(Cc2ccc3ccccc3c2)c(C)c(=O)[nH]c1=O	174 µM
O=[N+]([O-])c1cnn2c1n[n+]([O-])c1ccccc12	1.8 µM
CCc1c(Cc2cccc3ccccc23)n(COC)c(=O)[nH]c1=O	111 µM
CC(C)CN(C[C@@H](O)[C@H](Cc1ccccc1)NC(=O)OCc1cncs1)S(=O)(=O)c1ccc2ncn(CCc3ccccc3)c2c1	>100 µM
CC(C)(C)OC(=O)N(CCCCCCOC(=O)OC[C@H]1O[C@@H](n2ccc(N)nc2=O)CS1)CCCCCN(Cc1ccccc1)C(=O)OC(C)(C)C	10 µM
O=C1CSC(c2c(F)cccc2Cl)N1c1cccc(Cl)c1	30.1 µM
CCCc1c(Cc2cccc3ccccc23)n(COCCO)c(=O)[nH]c1=O	190 µM
O=C(O)c1cn(C2CC2)c2c(OC(F)F)c(N3CCN(c4ncc(Cl)cn4)CC3)c(F)cc2c1=O	3.99 µg/mL
O=C(CC1Nc2ccccc2S(=O)(=O)n2cccc21)Nc1ccc(Cl)cc1	12.5 µM
O=[N+]([O-])c1ccc2c(c1)nnc1c(Br)cnn12	>200 µM
CC(=O)N[C@@H](CCC(N)=O)C(=O)N[C@@H](C)C(=O)N[C@@H](CC(C)C)[C@@H](O)CC(=O)N[C@H](C(N)=O)C(C)C	850 µM
O=C(OCC1Nc2ccccc2S(=O)(=O)n2cccc21)c1ccc(Cl)cc1	186 µM
CCOC(=O)c1cccn1S(=O)(=O)c1cc(Cl)ccc1NC(C)=O	>200 µM
O=C1CSC(c2c(F)cccc2F)N1c1cccc(Br)c1	32.68 µM
CC[C@H](C)[C@H](NC(=O)C[C@H](O)[C@H](CC(C)C)NC(=O)[C@H](C)NC(=O)[C@H](CCC(=O)O)NC(C)=O)C(N)=O	1200 µM
O=S(=O)(O)c1ccc2c(OS(=O)(=O)c3cccc4c(S(=O)(=O)O)cccc34)cc(S(=O)(=O)O)cc2c1	>500 µM
CCOC(=O)c1cccn1S(=O)(=O)c1cc(Cl)ccc1NS(=O)(=O)c1ccc(C)cc1	41 µM
Cc1ccc(C(=O)Nc2ccc(S(=O)(=O)O)c3cc(S(=O)(=O)O)cc(S(=O)(=O)O)c23)cc1NC(=O)c1cccc(NC(=O)Nc2cccc(C(=O)Nc3cc(C(=O)Nc4ccc(S(=O)(=O)O)c5cc(S(=O)(=O)O)cc(S(=O)(=O)O)c45)ccc3C)c2)c1	320 µg/mL
O=C(O)C1=CC(=C(c2ccc(O)c(C(=O)O)c2)c2ccc(O)c(C(=O)O)c2)C=CC1=O	590 µM
CC(C)(C)OC(=O)N(CCCCCC(=O)OC[C@H]1O[C@@H](n2ccc(N)nc2=O)CS1)CCCCN(Cc1ccccc1)C(=O)OC(C)(C)C	10 µM
COC(=O)CC1Nc2ccccc2S(=O)(=O)n2cccc21	220 µM

6 of the rows above, restated:

compound	result
CCn1cc(C(=O)O)c(=O)c2cc(F)c(N3CCN(c4ncccn4)C(C)C3)c(OC(F)F)c21	10.5 µg/mL
O=C1CSC(c2c(Cl)cccc2Cl)N1c1cccc([N+](=O)[O-])c1	15.98 µM
CCOC(=O)c1cnn2c1nnc1ccc(Cl)cc12	5.2 µM
CCc1c(Cc2cccc3ccccc23)n(COCCO)c(=O)[nH]c1=O	191 µM
COC(=O)[C@H](C)NP(=O)(C[C@H]1O[C@@H](n2cc(C)c(=O)[nH]c2=O)C[C@@H]1N=[N+]=[N-])O[C@H]1C[C@H](n2cc(C)c(=O)[nH]c2=O)O[C@@H]1CO	180 µg/mL
Cn1cc(C(=O)O)c(=O)c2cc(F)c(N3CCN(c4ncccn4)CC3)c(OC(F)F)c21	17.99 µg/mL

Lines come from different laboratories, so protocols vary.